Reference: patent publication US8012982B2, “Modulators of HCV replication” (priority 2004, dated 2011)

Assays:
Format in all cases: cell-based
pHCVNeo17.m17 replicon = settings: replicon pHCVNeo17.m17: E1202G
pHCVNeo17.m43 replicon = settings: replicon pHCVNeo17.m43: E1202G, A2064V
pHCVNeo17.m48 replicon = settings: replicon pHCVNeo17.m48: E1202G, H2057R, A2064V
[1] = system: adapted replicons carrying A2064V, Y2065H or R2129W; settings: transient transfection
pHCVNeo17.m31 replicon = settings: replicon pHCVNeo17.m31: A2064V
pHCVNeo17.m45 replicon = settings: replicon pHCVNeo17.m45: E1202G, H2057R

In the case of `CC(C)(C)OC(=O)N1CCN(c2ccc(C(=O)Nc3ccc(O)cc3)cc2)CC1` [Example 101, tert-butyl 4-(4-{[(4-hydroxyphenyl)amino]carbonyl}phenyl)piperazine-1-carboxylate], the “Cmpd Ib IC50 (μM)” value (pHCVNeo17.m17 replicon) is reported as “activation”, the “Cmpd Ib IC50 (μM)” value (pHCVNeo17.m43 replicon) is reported as “No effect” and the “Cmpd Ib IC50 (μM)” value (pHCVNeo17.m48 replicon) is reported as “No effect”. For the same molecule, the “Resistance of adapted replicons carrying A2064V, Y2065H or R2129W” value [1] was “clearly resistant”, the “Cmpd Ib IC50 (μM)” value (pHCVNeo17.m31 replicon) was “No effect” and the “Cmpd Ib IC50 (μM)” value (pHCVNeo17.m45 replicon) was “activation”.
